Reference: patent publication US10253035B2 (priority 2016, dated 2019)

Tested on: Mtb K204

| SMILES | effect on KAN resistance of Mtb K204 (in words) |
| --- | --- |
| CN(c1cccc(C(C)(C)C)c1)S(=O)(=O)c1ccc2[nH]c(=O)c(=O)[nH]c2c1 [Compound 45] | did not produce compounds capable of overcoming KAN resistance |
| O=c1[nH]c2ccc(S(=O)(=O)Nc3ccccc3)cc2[nH]c1=O [Compound 32] | inert in that assay |
| COc1cccc(N(C)S(=O)(=O)c2ccc3[nH]c(=O)c(=O)[nH]c3c2)c1 [Compound 39] | completely cancelling the effect of the Eis upregulation |
| COc1cc(N(C)S(=O)(=O)c2ccc3[nH]c(=O)c(=O)[nH]c3c2)cc2ccccc12 [Compound 47] | loss of the effect on MICKAN |
| CCc1cccc(N(C)S(=O)(=O)c2ccc3[nH]c(=O)c(=O)[nH]c3c2)c1 [Compound 42] | did not produce compounds capable of overcoming KAN resistance |
| CN(c1ccccc1)S(=O)(=O)c1ccc2[nH]c(=O)c(=O)[nH]c2c1 [Compound 31] | did not overcome KAN resistance |
| COc1ccccc1N(C)S(=O)(=O)c1ccc2[nH]c(=O)c(=O)[nH]c2c1 [Compound 36] | inert in that assay |
